The list shows a part of the results, in another mix than the full data. Inconclusive results are not listed. The source made the active and inactive calls. No stated cut-off is given here; in the data, active means CPE inhibition above about 20% (passing the limit was not always enough); inconclusive means no clear call, values can overlap the other calls; tested in BHK-21 cells.

A short description of the experiment: inhibitors of DENV2 cytopathic effect, primary screen, cell-based, plate reader, single concentration (AID 651640).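 Further: 0% = median of neutral control wells and 100% = median of positive control wells.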 Particulars: DENV2-infected cells, cytopathic effect rescue, at 9.99 µM, active compounds read high. In general terms: Damage to the host cells serves as the signal in cytopathic effect assays.
In the case of `CN(C(=O)Cc1ccc(Cl)c(Cl)c1)C1CCCC[C@@H]1N1CCCC1` (stereo partly specified), the CPE inhibition is inactive: -8.2%.

Source of the values: PubChem BioAssay AID651640 (Broad Institute, 2012).
